Laboratory results: US20250332276A1, “Inhibitors of Molluscum Contagiosum Infection and Methods Using the Same” (priority 2022, published 2025)

Each molecule was assayed on mD4-VV surrogate virus (assay: microbe, parasite or virus in culture). Conditions: Orthopoxvirus vaccinia, read-out: EC50 (μM), antiviral mD4/VV activity.
Type: cell-based, vaccinia virus (VV)

Row | Compound | EC50
1 | CCC(C(=O)Nc1sc(C(=O)NCCN)c(C)c1C(=O)OC)c1cccc(C)c1 (stereo not shown) [Compound 75, methyl 5-((2-aminoethyl)carbamoyl)-4-methyl-2-(2-(m-tolyl)butanamido)thiophene-3-carboxylate] | 2.5 µM
2 | CCC(C(=O)Nc1sc(C(=O)NCCNC(=O)[C@@H](NC(=O)[C@@H](NC(=O)[C@@H](N)C(C)C)C(C)C)C(C)C)c(C)c1C(=O)OC)c1cccc(C)c1 (stereo partly drawn) [Compound 77, methyl 5-((2-((S)-2-((S)-2-((S)-2-amino-3-methylbutanamido)-3-methylbutanamido)-3-methylbutanamido)ethyl)carbamoyl)-4-methyl-2-(2-(m-tolyl)butanamido)thiophene-3-carboxylate] | 9.1 µM
3 | CCC(C(=O)Nc1sc(C(=O)NCCN)c(C)c1C(=O)OC)c1cccc(C(F)(F)F)c1 (stereo not shown) [Compound 78, methyl 5-((2-aminoethyl)carbamoyl)-4-methyl-2-(2-(3-(trifluoromethyl)phenyl)butanamido)thiophene-3-carboxylate] | 2.5 µM
4 | CCC(C(=O)Nc1sc(C(N)=O)c(C)c1C(=O)OC)c1ccccc1C (stereo not shown) [Compound 84, methyl 5-carbamoyl-4-methyl-2-(2-(o-tolyl)butanamido)thiophene-3-carboxylate] | 26.2 µM
5 | CCC(C(=O)Nc1sc(C(=O)NCCN)c(C)c1C(=O)OC)c1ccccc1C (stereo not shown) [Compound 85, methyl 5-((2-aminoethyl)carbamoyl)-4-methyl-2-(2-(o-tolyl)butanamido)thiophene-3-carboxylate] | 20.5 µM
6 | CCC(C(=O)Nc1sc(C(=O)NCCNC(=O)[C@@H](NC(=O)[C@@H](NC(=O)[C@@H](N)C(C)C)C(C)C)C(C)C)c(C)c1C(=O)OC)c1ccccc1C (stereo partly drawn) [Compound 87, methyl 5-((2-((S)-2-((S)-2-((S)-2-amino-3-methylbutanamido)-3-methylbutanamido)-3-methylbutanamido)ethyl)carbamoyl)-4-methyl-2-(2-(o-tolyl)butanamido)thiophene-3-carboxylate] | 30.6 µM
7 | CCC(C(=O)Nc1sc(C(N)=O)c(C)c1C(=O)OC)c1ccccc1C(F)(F)F (stereo not shown) [Compound 89, methyl 5-carbamoyl-4-methyl-2-(2-(2-(trifluoromethyl)phenyl)butanamido)thiophene-3-carboxylate] | 12.5 µM
8 | CCC(C(=O)Nc1sc(C(=O)NCCNC(=O)[C@@H](NC(=O)[C@@H](NC(=O)[C@@H](N)C(C)C)C(C)C)C(C)C)c(C)c1C(=O)OC)c1ccccc1C(F)(F)F (stereo partly drawn) [Compound 91, methyl 5-((2-((S)-2-((S)-2-((S)-2-amino-3-methylbutanamido)-3-methylbutanamido)-3-methylbutanamido)ethyl)carbamoyl)-4-methyl-2-(2-(2-(trifluoromethyl)phenyl)butanamido)thiophene-3-carboxylate] | 2.4 µM
9 | CCC(C(=O)Nc1sc(C(=O)N[C@@H](C(=O)N[C@@H](C(=O)OC(C)(C)C)C(C)C)C(C)C)c(C)c1C(=O)OC)c1ccc(F)cc1 (stereo partly drawn) [Compound 92, methyl 5-(((R)-1-(((R)-1-(tert-butoxy)-3-methyl-1-oxobutan-2-yl)amino)-3-methyl-1-oxobutan-2-yl)carbamoyl)-2-(2-(4-fluorophenyl)butanamido)-4-methylthiophene-3-carboxylate] | 35.5 µM
10 | CCC(C(=O)Nc1sc(C(=O)N[C@@H](C(=O)N[C@@H](C(=O)O)C(C)C)C(C)C)c(C)c1C(=O)OC)c1ccc(F)cc1 (stereo partly drawn) [Compound 93, (5-(2-(4-fluorophenyl)butanamido)-4-(methoxycarbonyl)-3-methylthiophene-2-carbonyl)-D-valyl-D-valine] | 13.6 µM
